Data as given in ChEMBL document CHEMBL3414532 (J Med Chem, 2015).

Key:
[1] = biological target: T1, Human immunodeficiency virus type 1 reverse transcriptase (Human immunodeficiency virus 1, UniProt Q72547, K103N/L100I); experiment: Inhibition of HIV1 reverse transcriptase L100I/K103N mutant associated RNase H domain activity assessed as reduction in internal cleavage using HTS-1 RNA/DNA duplex substrate by fluorescence assay
[2] = biological target: T1, Human immunodeficiency virus type 1 reverse transcriptase; experiment: Inhibition of HIV1 reverse transcriptase L100I/K103N mutant associated RNase H domain activity assessed as reduction in reduction in DNA 3' end directed cleavage using HTS-1 RNA/DNA duplex substrate by fluorescence assay
[3] = biological target: T2, Human immunodeficiency virus type 1 reverse transcriptase (Human immunodeficiency virus 1, UniProt Q72547, Y181C); experiment: Inhibition of HIV1 reverse transcriptase Y181C mutant associated RNase H domain activity assessed as reduction in reduction in DNA 3' end directed cleavage using HTS-1 RNA/DNA duplex substrate by fluorescence assay
[4] = biological target: T2, Human immunodeficiency virus type 1 reverse transcriptase; experiment: Inhibition of HIV1 reverse transcriptase Y181C mutant associated RNase H domain activity assessed as reduction in internal cleavage using HTS-1 RNA/DNA duplex substrate by fluorescence assay
[5] = biological target: T1, Human immunodeficiency virus type 1 reverse transcriptase; experiment: Inhibition of HIV1 reverse transcriptase L100I/K103N mutant polymerase activity using [3H]TTP and poly(rA)-oligo(dT)16 substrate incubated for 20 mins by liquid scintillation spectrometry
Method in brief: (§1)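 HIV RT (WT or NNRTI-resistant mutant, 10 nM) added to start reaction with 10 μM [3H]-TTP and 40 nM poly(rA)-oligo(dT)16 in 50 mM Tris-HCl pH 7.4, 60 mM KCl, 5 mM MgCl2; 20 min at 37 °C. Quenched with ice-cold 10% TCA/20 mM sodium pyrophosphate, glass-fiber filtered, washed with TCA and ethanol; incorporation counted by scintillation. IC50 as mean ± SD, ≥3 independent experiments.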

[6] = biological target: T2, Human immunodeficiency virus type 1 reverse transcriptase; experiment: Inhibition of HIV1 reverse transcriptase Y181C mutant polymerase activity using [3H]TTP and poly(rA)-oligo(dT)16 substrate incubated for 20 mins by liquid scintillation spectrometry; method in brief: as §1

Structure (SMILES) | IC50 [1] | IC50 [2] | IC50 [3] | IC50 [4] | IC50 [5] | IC50 [6]
O=C1Cc2cc(Cc3ccc(Cl)cc3)ccc2C(=O)N1O | 8200 nM | 8700 nM | 9000 nM | 7000 nM | 5100 nM | 5300 nM
N#Cc1ccc(-c2ccc(Cc3ccc4c(c3)CC(=O)N(O)C4=O)cc2)cc1 | 900 nM | 800 nM | 1800 nM | 1300 nM | 300 nM | 800 nM
COc1ccc(-c2ccc(Cc3ccc4c(c3)CC(=O)N(O)C4=O)cc2)cc1 | 1300 nM | 1900 nM | 3900 nM | 3800 nM | 1000 nM | 1700 nM
O=C1Cc2cc(Cc3ccc(-c4ccc(F)cc4)cc3)ccc2C(=O)N1O | 2500 nM | 2500 nM | 7200 nM | 4700 nM | 1500 nM | 1700 nM
O=C1Cc2cc(Cc3ccc(-c4ccccc4)cc3)ccc2C(=O)N1O | 700 nM | 1000 nM | 1100 nM | 900 nM | 500 nM | 700 nM
CS(=O)(=O)c1ccc(-c2ccc(Cc3ccc4c(c3)CC(=O)N(O)C4=O)cc2)cc1 | 1200 nM | 1400 nM | 1400 nM | 800 nM | 500 nM | 700 nM
